PubChem BioAssay AID1259414, Drosophila RNAi Screening Center – 2018

- Test: 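Host factors increasing or decreasing Wolbachia levels in cultured fly cells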 (primary screen)
- Cells: Drosophila JW18 cells infected with Wolbachia
- Reagent: long dsRNA against Drosophila genes, 0.25 µg dsRNA per well of a 384-well plate
- Time to read-out: 5 days
- Challenge: cells persistently infected with Wolbachia before knock-down; no added drug
- Measurement: 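Automated imaging of bacterial rRNA staining divided by host cell count, reported as plate-normalised robust z-score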
- Scale: Wolbachia per cell robust z: higher = more Wolbachia per host cell than the plate typical
- Hit rule: 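Active if absolute robust z reaches 1.5 in two or more of three replicates, leaving out multi- or no-target dsRNAs, genes unexpressed in JW18 and A1 wells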
In all, the deposit lists about 24,000 reagents; this is an unselected part of those that have a named target and a result. Of all reagents, about 1,210 (5%) are marked active. 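Inactive calls also include excluded dsRNAs with several or no targets, genes unexpressed in JW18, and well A1, regardless of score.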

Against CG15333 [DRSC18016], the entry reads Wolbachia per cell robust z, rep 1 = 0.0775; Wolbachia per cell robust z, rep 2 = 0.309; Wolbachia per cell robust z, rep 3 = -0.0989; inactive.
With knock-down of CG15333 [DRSC18153], the screen gave Wolbachia per cell robust z, rep 1 = 0.386; Wolbachia per cell robust z, rep 2 = -0.0238; Wolbachia per cell robust z, rep 3 = -0.376; inactive.
After knock-down of CG3198 [DRSC18292], the screen gave Wolbachia per cell robust z, rep 1 = 0.655; Wolbachia per cell robust z, rep 2 = 0.962; Wolbachia per cell robust z, rep 3 = 1.36; inactive.
CG3198 [DRSC24615] showed Wolbachia per cell robust z, rep 1 = -0.105; Wolbachia per cell robust z, rep 2 = 1.04; Wolbachia per cell robust z, rep 3 = 1.2; inactive.
CG3198 [DRSC38993] showed Wolbachia per cell robust z, rep 1 = 2.42; Wolbachia per cell robust z, rep 2 = 1.57; Wolbachia per cell robust z, rep 3 = 1.03; active.
For Npc1a [DRSC03378], the values are Wolbachia per cell robust z, rep 1 = -0.257; Wolbachia per cell robust z, rep 2 = -3.27; Wolbachia per cell robust z, rep 3 = 0.337; inactive.
Silencing of CG14418 [DRSC23051] resulted in: Wolbachia per cell robust z, rep 1 = -0.614; Wolbachia per cell robust z, rep 2 = -0.928; Wolbachia per cell robust z, rep 3 = -3.97; inactive.
With knock-down of LSm7 [DRSC02251], the screen gave Wolbachia per cell robust z, rep 1 = 1.72; Wolbachia per cell robust z, rep 2 = 0.674; Wolbachia per cell robust z, rep 3 = -4.74; inactive.

An excerpt taken from the entries so far:
Npc1a [DRSC03378]: Wolbachia per cell robust z, rep 1 = -0.257; Wolbachia per cell robust z, rep 2 = -3.27; Wolbachia per cell robust z, rep 3 = 0.337; call = inactive
CG14418 [DRSC23051]: Wolbachia per cell robust z, rep 1 = -0.614; Wolbachia per cell robust z, rep 2 = -0.928; Wolbachia per cell robust z, rep 3 = -3.97; call = inactive

Further records follow:
Knock-down of Rrp4 [DRSC04434] gave: Wolbachia per cell robust z, rep 1 = -0.0795; Wolbachia per cell robust z, rep 2 = 0.153; Wolbachia per cell robust z, rep 3 = -0.855; inactive.
Rrp4 [DRSC29543] showed Wolbachia per cell robust z, rep 1 = 0.396; Wolbachia per cell robust z, rep 2 = 1.52; Wolbachia per cell robust z, rep 3 = 0.403; inactive.
With knock-down of dpn [DRSC07605], the record shows Wolbachia per cell robust z, rep 1 = 0.432; Wolbachia per cell robust z, rep 2 = 1.68; Wolbachia per cell robust z, rep 3 = -1.55; inactive.
After knock-down of dpn [DRSC28443], the record shows Wolbachia per cell robust z, rep 1 = -0.116; Wolbachia per cell robust z, rep 2 = 0.196; Wolbachia per cell robust z, rep 3 = -0.259; inactive.
CG6231 [DRSC15997] gave Wolbachia per cell robust z, rep 1 = -1.18; Wolbachia per cell robust z, rep 2 = -0.364; Wolbachia per cell robust z, rep 3 = -2.57; inactive.
For Prp3 [DRSC10912] the deposit lists Wolbachia per cell robust z, rep 1 = 0.642; Wolbachia per cell robust z, rep 2 = 1.17; Wolbachia per cell robust z, rep 3 = -0.125; inactive.
With knock-down of Nup93-2 [DRSC16221], the screen gave Wolbachia per cell robust z, rep 1 = -0.0432; Wolbachia per cell robust z, rep 2 = -5.97; Wolbachia per cell robust z, rep 3 = -6.81; active.
Against CG32984 [DRSC21602], the entry reads Wolbachia per cell robust z, rep 1 = -1.27; Wolbachia per cell robust z, rep 2 = -0.9; Wolbachia per cell robust z, rep 3 = -0.871; inactive.
CG32984 [DRSC29257] gave Wolbachia per cell robust z, rep 1 = 0.331; Wolbachia per cell robust z, rep 2 = -0.999; Wolbachia per cell robust z, rep 3 = 0.0776; inactive.
Against CG32984 [DRSC39096], the entry reads Wolbachia per cell robust z, rep 1 = -0.198; Wolbachia per cell robust z, rep 2 = -0.936; Wolbachia per cell robust z, rep 3 = -1.6; inactive.
